Compound potency records, mixed from different reports. Data source: NIAID ChemDB in PubChem.

Shared fields: growth or infection tests; organism: Mycobacterium tuberculosis

A number after MIC or MFC names an inhibition level or a share of isolates. Percent inhibition refers to the dose given; in toxicity tests it is the harm to the cells. MIC bound comes from a single tested concentration. ECn is the concentration giving n% inhibition of infection, replication or growth. Neighbouring rows are from separate reports. An empty or dashed field is not shown.

SMILES,tested at,method,strain,read-out,setting,result
Cc1c(F)cc2c(=O)c(C(=O)O)cn3c2c1CCC3C,,,100 strains,MIC50,,3.2 µg/mL
Cn1c2ccccc2c2cc(C=NNc3nc(-c4cccc(Cl)c4)cs3)ccc21,,fluorescence,H37Rv,EC90,,>200 µM
Clc1ccc(C2Cc3nc4ccc(Cl)cc4c(-c4ccccc4)c3S2)c(Cl)c1,,agar,H37Rv,MIC,,0.9 µM
Cn1c2ccccc2c2cc(C=NNc3nc(-c4cccc([N+](=O)[O-])c4)cs3)ccc21,,fluorescence,H37Rv,EC90,,>200 µM
COC1=CC=C2[C@@H]3Cc4ccc(OC)c5c4[C@]2(CCN3CCCl)C1O5,,BACTEC,H37Rv,MIC bound,,>12.5 µg/mL
CCCCCCC(=O)Nc1sc(Cc2ccc(OCc3c(Cl)cccc3Cl)cc2)cc1C(=O)O,,resazurin,H37Rv,MIC90,,>128 µM
O=c1ccn(-c2ccc([N+](=O)[O-])cc2)c(=O)[nH]1,6.25 µg/mL,,,inhibition,,<90%
CC[C@@H](CO)NCCN[C@@H](CC)CO,5 µg/mL,,13 strains,inhibition,,69%
O=C(c1ccco1)N(C(=S)N1CCN(c2ccccc2)CC1)C1CCCCC1,,resazurin,H37Rv,MIC bound,,<6.25 µg/mL
O=C(N/N=C/c1ccc([N+](=O)[O-])cc1)c1ccc(F)cc1,6.25 µg/mL,,H37Rv,inhibition,,25%
Cc1c(CN2CCSCC2)cc(-c2cccc3ccccc23)n1-c1ccc(F)cc1,,,103471,MIC,,>16 µg/mL
O=C(O)c1cccnc1-c1ncccc1C(=O)O,,resazurin,H37Rv,MIC,,>6.25 µg/mL
CCOC(=O)C1=C(C)NC(=O)NC1c1ccc(OC)cc1,,,H37Rv,EC50,,>10 µg/mL
CCN(CC)CCN1CC(=O)N2CCCCN2C(=O)C1.O=C(O)C(=O)O,,BACTEC,H37Rv,MIC bound,,>12.5 µg/mL
OCCN1CCN(CCC=C2c3ccccc3Sc3ccc(Cl)cc32)CC1,,,ST. 5,MIC,,6.25 µg/mL
N#Cc1cnc(C(N)=O)c(Nc2ccc(Cl)cc2)n1,,,H37Rv,MIC,,>100 µg/mL
O=c1[nH]c(=O)n(CCCO)cc1[N+](=O)[O-],6.25 µg/mL,,,inhibition,,<90%
COc1ccc(-c2csc(NN=Cc3ccc4c(c3)c3ccccc3n4C)n2)cc1OC,,fluorescence,H37Rv,EC90,,>50 µM
O=C(Nc1sc(Cc2ccc(OCc3c(Cl)cccc3Cl)cc2)cc1C(=O)O)c1ccco1,,resazurin,H37Rv,MIC90,,28.4 µM
NNC(=O)c1nnsc1-c1csnn1,,BACTEC,H37Rv,MIC,,≥12.5 µg/mL
N#Cc1cnc(C(N)=O)c(Nc2ccc(O)cc2)n1,,,H37Rv,MIC,,25 µg/mL
CO[C@H]1/C=C/O[C@@]2(C)Oc3c(C)c(O)c4c(O)c(c5c(c4c3C2=O)NC2(CCN(CC(C)C)CC2)N=5)=NC(=O)/C(C)=C\C=C\[C@H](C)[C@H](O)[C@@H](C)[C@@H](O)[C@@H](C)[C@H](OC(C)=O)[C@@H]1C,,,510-3 (RIF-R),MBC,,32 µg/mL
Clc1ccc2nc3c(c(-c4ccccc4)c2c1)SC(c1ccccc1Cl)C3,,agar,H37Rv,MIC,,3.82 µM
CCCCCCCCCCN(CCCCCCCCCC)S[C@@H]1O[C@@H]([C@H](O)CO)[C@H](O)[C@H]1O,,,,MIC,,<5 µg/mL
O=[N+]([O-])C1CN=C(NC(c2ccc(OCc3ccccc3)cc2)C2CC2)S1,,,,MIC,,>25 µg/mL
Cc1nc(N)c2ncn([C@@H]3O[C@H](CO)[C@@H](O)[C@H]3O)c2n1,,,H37Ra,MIC,,5 µg/mL
COc1ccccc1C(=O)Nc1sc(Cc2ccc(OCc3c(Cl)cccc3Cl)cc2)cc1C(=O)O,,resazurin,H37Rv,MIC90,,15.8 µM
N#Cc1cnc(C(N)=O)c(Nc2cc(C(F)(F)F)cc(C(F)(F)F)c2)n1,,,H37Rv,MIC,,>100 µg/mL
CCOC(=O)OCC1=Nc2cccc3cccc(c23)N1,,BACTEC,H37Rv,MIC bound,,>12.5 µg/mL
O=C(N/N=C/c1ccc(Cl)cc1)c1ccc(F)cc1,6.25 µg/mL,,H37Rv,inhibition,,28%
CN[C@H](CC(C)C)C(=O)N[C@H]1C(=O)N[C@@H](CC(N)=O)C(=O)N[C@H]2C(=O)N[C@H]3C(=O)N[C@H](C(=O)N[C@H](C(=O)O)c4cc(O)cc(O)c4-c4cc3ccc4O)[C@H](O)c3ccc(c(Cl)c3)Oc3cc2cc(c3O[C@@H]2O[C@H](CO)[C@@H](O)[C@H](O)[C@H]2O[C@H]2C[C@](C)(N)[C@H](O)[C@H](C)O2)Oc2ccc(cc2Cl)[C@H]1O,,,24 strains,MIC90,,>25 µg/mL
CCCCC(=O)Nc1sc(Cc2ccc(OCc3c(Cl)cccc3Cl)cc2)cc1C(=O)O,,resazurin,H37Rv,MIC90,,7.7 µM
Cc1ccc(S(=O)(=O)OCC(OS(=O)(=O)c2ccc(C)cc2)C2OC(c3ccccc3)OC3COC(c4ccccc4)OC32)cc1,,BACTEC,H37Rv,MIC bound,,>12.5 µg/mL
CCCCc1cc(C)c2cccc(CCCC)c2n1,,,H37Rv,MIC,,>6.25 µg/mL
CCCN(CCC)C(=S)N/N=C/c1ccc([N+](=O)[O-])o1,,,,MIC,,100 µg/mL
CC(O)Cn1cc([N+](=O)[O-])c(=O)[nH]c1=O,6.25 µg/mL,,,inhibition,,<90%
C[C@H](N)C(=O)N[C@@H](Cc1ccccc1)C(=O)N1CCC[C@H]1C(=O)Nc1ccc2ccccc2c1,12.5 µg/mL,BACTEC,H37Rv,inhibition,,-14%
CN(C)CCCN1c2ccccc2Sc2ccc(Cl)cc21,,,ST. 5,MIC,,12.5 µg/mL
Cc1ccc(C)c(N2C(=O)C(=O)C(c3nc4ccccc4o3)/C(=N/NC(=O)c3ccccc3O)C2=O)c1,,BACTEC,H37Rv,MIC bound,,>12.5 µg/mL
O=C(N/N=C/c1cccs1)c1ccc([N+](=O)[O-])cc1,6.25 µg/mL,,H37Rv,inhibition,,0%
CCn1cc(C(=O)O)c(=O)c2cc(F)c(N3CCN(/C=N/NC(=O)c4cccc(F)c4)CC3)cc21,,,A8 241,MIC,,31.67 µg/mL
Cn1c2ccccc2c2cc(C=NNc3nc(-c4cc5cc(Br)ccc5oc4=O)cs3)ccc21,,fluorescence,H37Rv,EC90,,>200 µM
CCOC(=O)c1nnn(CC(=O)c2ccccc2)c1C(=O)OCC,,agar,H37Rv,MIC,,2.13 µg/mL
CCOC(=O)C1=NN(c2ccccc2)C(=O)C1N=Nc1ccc(NS(=O)(=O)c2nccs2)cc1,,BACTEC,H37Rv,MIC,,≥12.8 µg/mL
CCOC(=O)C1=C(C)NC(=S)NC1c1ccc(OC)cc1,,,H37Rv,EC50,,>10 µg/mL
CC(=O)NC[C@H]1CN(c2ccc(-c3ccc(CNCCCF)cc3)c(F)c2)C(=O)O1,,resazurin,H37Rv,EC90,,0.06 µg/mL
CCOc1ccc(Nc2nc(-c3ccccn3)cs2)nc1,,fluorescence,H37Rv,EC90,,62 µM
CCN=C1Nc2ccccc2-n2c(nn3nc4ccccc4c23)N1CC,,BACTEC,H37Rv,MIC bound,,>12.5 µg/mL
Cc1ccc(C2Cc3nc4ccccc4c(-c4ccccc4)c3S2)cc1,,agar,H37Rv,MIC,,35.36 µM
CCOC(=O)C1=C(C)NC(C)=C(C(=O)OCC)C1c1ccc(OC)cc1,,,H37Rv,EC50,,>10 µg/mL
CC(C)OC(=O)c1cccnc1-c1ncccc1C(=O)OC(C)C,,resazurin,H37Rv,MIC,,>6.25 µg/mL
OCCN1CCN(CC/C=C2\c3ccccc3Sc3ccc(Cl)cc32)CC1,,,ST. 5,MIC,,12.5 µg/mL
O=Cc1ccc(C=O)o1,,BACTEC,H37Rv,MIC bound,,>12.5 µg/mL
Cn1c2ccccc2c2cc(C=NNc3nc(-c4ccc(F)cc4)cs3)ccc21,,fluorescence,H37Rv,EC50,,61 µM
CNn1cc(C(=O)O)c(=O)c2cc(F)c(N3CCN(C)CC3)cc21,,,19 strains,MIC50,,6.2 µg/mL
O=C(Nc1sc(Cc2ccc(OCc3c(Cl)cccc3Cl)cc2)cc1C(=O)O)c1ccc(Cl)cc1,,resazurin,H37Rv,MIC90,,1.9 µM
CC[C@H]1OC(=O)[C@H](C)C(=O)[C@H](C)[C@@H](O[C@@H]2O[C@H](C)C[C@H](N(C)C)[C@H]2O)[C@](C)(OC)C[C@@H](C)C(=O)[C@H](C)[C@H]2N(CCCCn3cnc(-c4cccnc4)c3)C(=O)O[C@]12C,,,H37Rv,MIC,,>40 µg/mL
OCC(O)C(O)C(O)C1SC(c2ccccc2)=NN1c1ccccc1,,resazurin,H37Rv,MIC bound,,>6.25 µg/mL
O=C(Nc1sc(Cc2ccc(OCc3c(Cl)cccc3Cl)cc2)cc1C(=O)O)c1ccccc1F,,resazurin,H37Rv,MIC90,,7.7 µM
CCn1cc(C(=O)O)c(=O)c2cc(F)c(-n3cccc3)cc21,3 µg/mL,,,inhibition,pH 6.8,100%
CC(=O)O[C@H]1C(=O)[C@]2(C)[C@@H](OC(C)=O)C[C@H]3OC[C@@]3(OC(C)=O)[C@H]2[C@H](OC(=O)c2ccccc2)[C@]2(O)C[C@H](OC(=O)[C@H](OC(C)=O)[C@@H](NC(=O)c3ccccc3)c3ccccc3)C(C)=C1C2(C)C,,,PZA-R,MIC,,3.1 µg/mL
N#Cc1cnc(C(N)=O)c(Nc2cccc(Br)c2)n1,,,H37Rv,MIC,,>100 µg/mL
O=C1CC(=O)n2cnc3cccc(c32)N1,6.25 µg/mL,resazurin,H37Rv,inhibition,,-30%
O=C(N/N=C/c1ccc(Br)cc1)c1ccc(F)cc1,6.25 µg/mL,,H37Rv,inhibition,,36%
CC(C)(C)NC(=O)c1cccc(C(=O)NC(C)(C)C)n1,,resazurin,H37Rv,MIC bound,,>6.25 µg/mL
Cn1c2ccccc2c2cc(C=NNC(N)=S)ccc21,,fluorescence,H37Rv,EC90,,5.9 µM
O=C(N/N=C/c1ccc[nH]1)c1ccc(F)cc1,6.25 µg/mL,,H37Rv,inhibition,,0%
CN(C)CC/C=C1\c2ccccc2Sc2ccc(Cl)cc21,,,ST. 5,MIC,,6.25 µg/mL
CS(C)=O.CS(C)=O.CS(C)=O.CS(C)=O.[Cl][Ru][Cl],,resazurin,H37Rv,MIC,,>6.25 µg/mL
NC(=O)N/N=C/c1ccc([N+](=O)[O-])o1,,,,MIC,,20 µg/mL
O=C(N/N=C/c1cccs1)c1ccccc1,,,H37Rv,EC50,,>6.25 µg/mL
O=c1[nH]c(=O)n(-c2ccc([N+](=O)[O-])cc2[N+](=O)[O-])cc1Cl,6.25 µg/mL,,,inhibition,,<90%
COC(=O)Nc1cccc(-c2nc3ccc(NC(=O)OC)cc3c(=O)n2-c2ccccc2)c1,12.5 µg/mL,BACTEC,H37Rv,inhibition,,-2%
CN1CCN(C(=O)N/N=C/c2ccc([N+](=O)[O-])o2)CC1,,,,MIC,,10 µg/mL
O=[N+]([O-])c1ccc2[nH]c(=S)n(/C=C(/c3ccc(Cl)cc3)S(=O)(=O)Cc3ccc(Cl)cc3)c2c1,6.25 µg/mL,resazurin,H37Rv,inhibition,,-66%
Cc1cccc(Nc2nc(C#N)cnc2C(N)=O)c1,,,H37Rv,MIC,,25 µg/mL
CC(/C=C1/C(=O)N(C)C(CC(C)C(Cl)(Cl)Cl)C(=O)N1C)C(Cl)(Cl)Cl,,BACTEC,H37Rv,MIC bound,,>12.5 µg/mL
Fc1ccc(C2Cc3nc4ccccc4c(-c4ccccc4)c3S2)cc1,,agar,H37Rv,MIC,,8.76 µM
Cc1cc(N=Nc2ccc(-c3ccc(N=Nc4ccc(O)c(C(=O)O)c4)cc3)cc2)c(N)c(N=Nc2ccc(C(=O)Nc3ccc(S(=O)(=O)O)cc3)cc2)c1N,,BACTEC,H37Rv,MIC,,≥12.5 µg/mL
CCOC(=O)C1=C(C)NC(=O)NC1c1cc(OC)c(OC)c(OC)c1,,,H37Rv,EC50,,>10 µg/mL
CC(C)(O)CC[C@@H](O)[C@](C)(O)[C@H]1CC[C@@]2(O)C3=CC(=O)[C@@H]4C[C@@H](O)[C@@H](O)C[C@]4(C)[C@H]3CC[C@]12C,,BACTEC,H37Rv,MIC,,≥12.5 µg/mL
COc1ccc(-c2csc(Nc3cc(Cl)cc(Cl)c3)n2)cc1,,resazurin,,MIC,,15.6 µM

A second listing of 10 rows from above:

SMILES,tested at,method,strain,read-out,setting,result
O=Cc1ccc(C=O)o1,,BACTEC,H37Rv,MIC bound,,>12.5 µg/mL
Cc1cc(N=Nc2ccc(-c3ccc(N=Nc4ccc(O)c(C(=O)O)c4)cc3)cc2)c(N)c(N=Nc2ccc(C(=O)Nc3ccc(S(=O)(=O)O)cc3)cc2)c1N,,BACTEC,H37Rv,MIC,,≥12.5 µg/mL
O=c1[nH]c(=O)n(-c2ccc([N+](=O)[O-])cc2[N+](=O)[O-])cc1Cl,6.25 µg/mL,,,inhibition,,<90%
OCCN1CCN(CC/C=C2\c3ccccc3Sc3ccc(Cl)cc32)CC1,,,ST. 5,MIC,,12.5 µg/mL
CC(O)Cn1cc([N+](=O)[O-])c(=O)[nH]c1=O,6.25 µg/mL,,,inhibition,,<90%
O=[N+]([O-])C1CN=C(NC(c2ccc(OCc3ccccc3)cc2)C2CC2)S1,,,,MIC,,>25 µg/mL
CC(C)OC(=O)c1cccnc1-c1ncccc1C(=O)OC(C)C,,resazurin,H37Rv,MIC,,>6.25 µg/mL
NC(=O)N/N=C/c1ccc([N+](=O)[O-])o1,,,,MIC,,20 µg/mL
CNn1cc(C(=O)O)c(=O)c2cc(F)c(N3CCN(C)CC3)cc21,,,19 strains,MIC50,,6.2 µg/mL
Cc1ccc(S(=O)(=O)OCC(OS(=O)(=O)c2ccc(C)cc2)C2OC(c3ccccc3)OC3COC(c4ccccc4)OC32)cc1,,BACTEC,H37Rv,MIC bound,,>12.5 µg/mL